The text below walks through data of the supplement of paper PMC9931576.

Common to all, as to assay: pseudovirus neutralization IC50; higher = weaker neutralization
Experiment [1] addresses SARS-CoV-2 Omicron BA.1 spike pseudovirus. How it is done:
(§1)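 Single-round VSV luciferase pseudovirus mixed with antibody dilutions for 1 h and put on Huh-7 cells for about a day; IC50 from the dose curve.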

The target in experiment [2] is SARS-CoV-2 Omicron BA.2 spike pseudovirus. How it is done:
as §1

Experiment [3] concerns the target SARS-CoV-2 Omicron BA.2.75 spike pseudovirus. On the procedure: as §1
In experiment [4] the target is SARS-CoV-2 Omicron BA.5 spike pseudovirus. How it is done: as §1
In experiment [5] the target is SARS-CoV-2 Omicron BQ.1.1 spike pseudovirus. How it is done:
as §1

Experiment [6] addresses SARS-CoV-2 Omicron XBB spike pseudovirus. On the procedure: as §1
Experiment [7] concerns the target SARS-CoV-2 early D614G spike pseudovirus. On the procedure:
as §1

Residue numbers refer to the chain shown, from its start. Human monoclonal antibodies against the spike receptor-binding domain (heavy:light variable regions). IC50 against pseudoviruses bearing the spike of naturally observed variants; lower = stronger; >10 µg/ml means not reached at the top dose. No active / inactive call. The stated detection limit is 0.0005 µg/ml; values near or below 0.001 µg/ml lie at the floor of the assay.

B1: BD56-1791 (protein)
chain 1: QWQLQESGPGLVKPSETLSLTCTVSGGSIASPTSSYYWAWVRQPPGKGLEWIGSMYYSGNTYLNPSLKSRVTISLDTSKNQFSLKLTSVTVADTAVYYCTREDPDLGIGGSFDYWGQGRLVTVSS
chain 2: DIQLTQSPSSLSASVGDRVTITCRASQGISNYLAWYQQRPGKAPKLLIYTASTLQSGVPSRFSGSGSGTDFTLTISSLQPEDFATYYCQKLNSYPPMYTFGQGTKLEIK
On to B1, for which the “pseudovirus neutralization IC50” value in experiment [1] is 0.209 µg/mL; in experiment [2], 0.013 µg/mL; in experiment [3] it was 0.00514 µg/mL; in experiment [4], 0.272 µg/mL; in experiment [5], over 10 µg/mL; in experiment [6], 0.494 µg/mL. In addition, the “pseudovirus neutralization IC50” value in experiment [7] came out at 0.0262 µg/mL.

B2: BD56-1795 (protein)
chain 1: QVQLVQSGAEVKKPGSSVKVSCKASGGTFSSSSITWVRQAPGQGLEWMGRVIPILNIPNYAQKFQGRLRIIADKSTGTAYLDLSSLRSEDTAFYYCAREPIEYNYDTSGLHSEYFQDWGQGTLVTVSS
chain 2: QSVLTQTPSVSGAPGQRVTISCTGSNSNIGAGYDVHWYQQLPGTAPKLLIFGNNNRPSGVPDRFSGSKSGTSASLAITGLQADDEADYYCQSYDSSLSGSVFGGGTKLTVL
Consider B2, for which the “pseudovirus neutralization IC50” value is 0.0737 µg/mL in experiment [1]; 0.0364 µg/mL in experiment [2]; 0.0698 µg/mL in experiment [3]; over 10 µg/mL in experiment [4]; over 10 µg/mL in experiment [5]; over 10 µg/mL in experiment [6]. Moreover, the “pseudovirus neutralization IC50” value in experiment [7] came out at 0.432 µg/mL.

B3: BD56-1805 (protein)
chain 1: QVQLVQSGAEVKKPGSSVKVSCKASGGTFSSYGISWVRQAPGQGLEWMGGIIPILGIANYAEKFQGRVTITADKSTGTADMELSSLRSEDTAVYYCAREWPHCRSTSCYGWWGQGTLVTVSS
chain 2: B2 chain 2 with T7P, S25T, G52D, D83E, S98I
As to B3, the “pseudovirus neutralization IC50” value in experiment [1] is 0.0349 µg/mL; in experiment [2] it was 0.0847 µg/mL; in experiment [3], 0.0268 µg/mL; in experiment [4], over 10 µg/mL; in experiment [5] it was over 10 µg/mL; in experiment [6], over 10 µg/mL. Besides, the “pseudovirus neutralization IC50” value in experiment [7] turned out to be 0.131 µg/mL.

B4: BD56-1807 (protein)
chain 1: QVQLVQSGAEVKKPGSSVKVSCKASGGTFSSNSITWVRQAPGEGLEWMGGIIPILGVANYALKLQGRVTITVDRSTRTAYMELRSLRSDDTAVYYCAEEVGYSGYGATAWFDPWGQGTLVTVSS
chain 2: B2 chain 2 with V3L, T7S, F51S, G52A, N54T, D83E, S100P, G104R
As to B4, the “pseudovirus neutralization IC50” value in experiment [1] worked out at 0.0734 µg/mL; in experiment [2], 0.0579 µg/mL; in experiment [3], 0.0571 µg/mL; in experiment [4], 1.8 µg/mL; in experiment [5] it was 1.62 µg/mL; in experiment [6], 1.41 µg/mL. In experiment [7], the “pseudovirus neutralization IC50” value was found to be 0.303 µg/mL.

B5: BD-449 (protein)
chain 1: QVQLVESGGGVVQPGRSLRLSCVASGFTFSNYDMHWVRQAPGKGLEWVTVISSDGNNRRYADSVKGRFTISRDNSKNMLYLQMNSLKAEDTAVYYCARDEVIAVATGEGMDVWGQGTTVTVS
chain 2: EIVMTQSPAILSVSPGERATLSCRASQSVTRNLAWYQQKPGQAPRLLIYGASTRATNIPARFSGSGFGTEFTLIISSLQSEDFAVYYCQQYSNWPLYTFGQGTKLEIK
As to B5, the “pseudovirus neutralization IC50” value in experiment [1], in experiment [2], in experiment [3], in experiment [4], in experiment [5] and in experiment [6] was over 10 µg/mL in each case. For the same molecule, the “pseudovirus neutralization IC50” value in experiment [7] stood at 0.243 µg/mL.

B6: BD56-1800 (protein)
chain 1: EVQLVESGGGLVQPGRSLTLSCAASGFTYDEYAMHWVRQAPGKGLEWVSGITWNSGTIDYADSVKGRFIISRDNAKNSLYLHMRSLRAEDTALYYCAKDRGRDGDYGLDVWGHGTSVTVSS
chain 2: SYVLTQAPSVSVAPGKTAKIFCGANNSGGKGVHWYQLKPGQAPILVVYDDSDRPSGIPERFSGSNSDNTATLTISRVEAGDEADYYCQVWDSSGDHPVFGGGTKLTVL
On to B6, for which the “pseudovirus neutralization IC50” value in experiment [1] was 0.0123 µg/mL; in experiment [2], 0.0321 µg/mL; in experiment [3], 0.00609 µg/mL; in experiment [4] it was 0.0622 µg/mL; in experiment [5], over 10 µg/mL; in experiment [6], over 10 µg/mL. Moreover, the “pseudovirus neutralization IC50” value in experiment [7] came to 0.0146 µg/mL.
